Columns and labels:
Escherichia coli = assay: Synergistic antibacterial activity against Escherichia coli in presence of Trimethoprim
Staphylococcus aureus = assay: Synergistic antibacterial activity against Staphylococcus aureus in presence of Trimethoprim

c1cc(-c2nn[nH]n2)ccc1-c1nn[nH]n1
MIC (Escherichia coli): 0.98 µg/mL
MIC (Staphylococcus aureus): 31.3 µg/mL

Reference: ChEMBL document CHEMBL4342421, “Current scenario of tetrazole hybrids for antibacterial activity” (Eur J Med Chem, 2019)
